# Laboratory results published in publication PMC11305400, “Multiple transatlantic incursions of highly pathogenic avian influenza clade 2.3.4.4b A(H5N5) virus into North America and spillover to mammals” (2024).
# Key:
# [1] = system: NA (neuraminidase) of A/American_Crow/PEI/FAV-0035-6/2023 (H5N5)
# [2] = system: NA (neuraminidase) of A/Raccoon/PEI/FAV-0193-1/2023 (H5N5)
compound,measurement,setting,value
CCC(CC)[C@H](NC(C)=O)[C@@H]1[C@H](O)[C@@H](C(=O)O)C[C@H]1N=C(N)N,IC50,[1],0.08 nM
same,IC50,[2],0.08 nM
